A mixed list of measured activities; the numbers were collected in NIAID ChemDB.

Shared fields: target-level tests

ICn: concentration for n% inhibition. Percent inhibition refers to the dose given; in toxicity tests it is the harm to the cells. Rows are shuffled and stem from different studies. Fold resistance: result on the changed form divided by that on wild type. Blank or dashed fields: not listed here.

CCCCCCCCCCCCCCCCCC(=O)NCCN(CC(=O)O)C(=O)Cn1cc(C)c(=O)[nH]c1=O ; target: Integrase ; species: HIV ; measure: IC50 ; value: 22 µM
Nc1nc2c(ncn2[C@H]2C[C@H](OP(=O)(O)OC[C@H]3O[C@@H](n4cnc5c(=O)[nH]c(N)nc54)C[C@@H]3O)[C@@H](CO)O2)c(=O)[nH]1 ; read by: RNase H ; target: RNase H ; species: HIV-1 ; measure: inhibition ; dose: 50 µM ; value: 9%
CC(C)(C)c1ccc(-n2nnnc2SCC(=O)Nc2ccc(C#CCOC(N)=O)cc2Cl)c(Cl)c1 ; read by: PicoGreen / fluorescence ; target: Reverse transcriptase ; species: HIV-1 ; measure: IC50 ; strain: WT ; value: <1 µM
Nc1nc2c(ncn2[C@H]2CC[C@@H](COP(=O)(O)OP(=O)(O)OP(=O)(O)O)O2)c(=O)[nH]1 ; read by: nucleotide incorporation / radiometric ; target: Reverse transcriptase ; mutations: RT-D67N K70R T215Y K219Q ; species: HIV ; measure: fold resistance ; value: 0.77
Nc1ncnc2c1ncn2[C@@H]1O[C@H](COP(=O)(O)O[C@H]2[C@@H](O)[C@H](n3cnc4c(N)ncnc43)O[C@@H]2CO)[C@@H](O)[C@H]1O ; read by: RNase H ; target: RNase H ; species: HIV-1 ; measure: inhibition ; dose: 50 µM ; value: 1%
CC(C)c1ccc(-n2nnnc2SCC(=O)Nc2ccc(C#CC(C)(C)C(=O)O)cc2Cl)c(Br)c1 ; read by: PicoGreen / fluorescence ; target: Reverse transcriptase ; mutations: RT-K103 Y181C ; species: HIV-1 ; measure: IC50 ; value: <1 µM
Nc1nc2c(ncn2[C@H]2CC[C@@H](COP(=O)(O)OP(=O)(O)OP(=O)(O)OP(=O)(O)OC[C@@H]3CC[C@H](n4cnc5c(=O)[nH]c(N)nc54)O3)O2)c(=O)[nH]1 ; read by: nucleotide incorporation / radiometric ; target: Reverse transcriptase ; mutations: RT-D67N K70R T215Y K219Q ; species: HIV ; measure: IC50 ; value: 0.2 µM
O=c1ccn(C2OC(COP(=O)(O)OC3C(CO)OC(n4ccc(=O)[nH]c4=O)C3O)C(O)C2O)c(=O)[nH]1 ; read by: RNase H ; target: RNase H ; species: HIV-1 ; measure: inhibition ; dose: 50 µM ; value: 3%
Nc1nc2c(ncn2[C@H]2CO[C@@H](COP(=O)(O)OP(=O)(O)OP(=O)(O)O)O2)c(=O)[nH]1 ; read by: radiometric ; target: Reverse transcriptase ; mutations: RT-K65R K103N ; species: HIV ; measure: fold resistance ; value: 0.81
Nc1nc2c(ncn2[C@@H]2O[C@H](COCO[C@@H]3[C@H](O)[C@@H](CO)O[C@H]3n3cnc4c(=O)[nH]c(N)nc43)[C@@H](O)[C@H]2O)c(=O)[nH]1 ; read by: RNase H ; target: RNase H ; species: HIV-1 ; measure: inhibition ; dose: 50 µM ; value: 65%
CC(C)c1ccc(-n2nnnc2SCC(=O)Nc2ccc(-c3ccc(C(C)(C)C(=O)O)cc3)cc2Cl)c(Cl)c1 ; read by: PicoGreen / fluorescence ; target: Reverse transcriptase ; species: HIV-1 ; measure: IC50 ; strain: WT ; value: <1 µM
Nc1nc2c(ncn2[C@H]2CC[C@@H](COP(=O)(O)OP(=O)(O)OP(=O)(O)OP(=O)(O)OC[C@H]3O[C@@H](n4cnc5c(N)ncnc54)[C@H](O)[C@@H]3O)O2)c(=O)[nH]1 ; read by: nucleotide incorporation / radiometric ; target: Reverse transcriptase ; mutations: RT-M41L T215Y ; species: HIV ; measure: fold resistance ; value: 0.29
COC(=O)/C=C/c1ccc(NC(=O)CSc2nnnn2-c2ccc(C)cc2Cl)c(Cl)c1 ; read by: PicoGreen / fluorescence ; target: Reverse transcriptase ; species: HIV-1 ; measure: IC50 ; strain: WT ; value: <1 µM
Nc1nc2c(ncn2[C@@H]2O[C@H](COP(=O)(O)O[C@H]3[C@@H](F)[C@H](n4cnc5c(N)ncnc54)O[C@@H]3CO)[C@@H](O)[C@H]2O)c(=O)[nH]1 ; read by: RNase H ; target: RNase H ; species: HIV-1 ; measure: inhibition ; dose: 50 µM ; value: 34%
Cn1cc(NC(=O)COc2ccc(NC(=O)CSc3nnnn3-c3ccc(C(C)(C)C)cc3Cl)c(Cl)c2)cc1C(=O)O ; read by: PicoGreen / fluorescence ; target: Reverse transcriptase ; species: HIV-1 ; measure: IC50 ; strain: WT ; value: <1 µM
Nc1nc2c(ncn2[C@@H]2O[C@H](COP(=O)(O)O[C@H]3[C@@H](O)[C@H](n4cnc5c(N)ncnc54)O[C@@H]3CO)[C@@H](O)[C@H]2O)c(=O)[nH]1 ; read by: RNase H ; target: RNase H ; species: HIV-1 ; measure: inhibition ; dose: 50 µM ; value: 8%
Nc1ccn([C@H]2CC[C@@H](COP(=O)(O)OP(=O)(O)OP(=O)(O)OP(=O)(O)OC[C@@H]3CC[C@H](n4ccc(N)nc4=O)O3)O2)c(=O)n1 ; read by: nucleotide incorporation / radiometric ; target: Reverse transcriptase ; mutations: RT-D67N K70R T215Y K219Q ; species: HIV ; measure: fold resistance ; value: 0.08
CN(C)CC(=O)NC(C)(C)C#Cc1ccc(NC(=O)CSc2nnnn2-c2cc(C(F)(F)F)ccc2Cl)c(Cl)c1F ; read by: PicoGreen / fluorescence ; target: Reverse transcriptase ; species: HIV-1 ; measure: IC50 ; strain: WT ; value: <1 µM

The first 2 rows once more:

smiles | read by | target | mutations | species | measure | strain | dose | value
CCCCCCCCCCCCCCCCCC(=O)NCCN(CC(=O)O)C(=O)Cn1cc(C)c(=O)[nH]c1=O |  | Integrase |  | HIV | IC50 |  |  | 22 µM
Nc1nc2c(ncn2[C@H]2C[C@H](OP(=O)(O)OC[C@H]3O[C@@H](n4cnc5c(=O)[nH]c(N)nc54)C[C@@H]3O)[C@@H](CO)O2)c(=O)[nH]1 | RNase H | RNase H |  | HIV-1 | inhibition |  | 50 µM | 9%